Compound potency records, mixed from different reports. Data source: NIAID ChemDB in PubChem.

All rows: whole-cell or culture tests; organism: HIV-1; read-out: fold resistance

Blank or dashed fields: not listed here. Rows are shuffled and stem from different studies. Fold resistance: result on the changed form divided by that on wild type.

SMILES	read by	changes	strain	cell line	value
Cc1cc(C)nc(N2C(=O)CSC2c2c(Cl)cccc2Cl)n1	cytopathic effect	RT-L100I		CEM	9.2
Nc1cccc(CN2C(=O)N(Cc3cccc(N)c3)[C@H](Cc3ccccc3)[C@H](O)[C@@H](O)[C@H]2Cc2ccccc2)c1	p24	PR-V82F	HXB2	MT-4	5.3
CC(C)=CCOc1cc(NC(=S)c2ccoc2C)ccc1Cl	syncytia	gp120 T90I T188N T236A N289K T297I S334N T341I N386D	HHA-500SN (GP120-T90I T188N T236A N289K T297I S334N T341I N386D)	CEM	2
Cc1cn([C@H]2C[C@H](N=[N+]=[N-])[C@@H](CO)O2)c(=O)[nH]c1=O	p24	RT-P236L	BaL	Macrophage + Monocytes/macrophages	3
C#C[C@]1(CO)O[C@@H](n2cc(C)c(=O)[nH]c2=O)C[C@@H]1O	β-galactosidase	RT-K65R		HeLa	0.679
Nc1ccn([C@H]2C=C[C@@H](CO)O2)c(=O)n1	plaque count	RT-T215Y	HXB2	CD4+HELA + HeLa	1.33
COc1cc(C)nc(N2C(=O)CSC2c2c(Cl)cccc2Cl)n1	cytopathic effect	RT-Y181C		CEM	164.6
CCNc1cccnc1N1CCN(C(=O)c2cc3cc(OC)ccc3[nH]2)CC1	syncytia	RT-Y181C	IIIB-TSAO-m3T(10)(RT-Y181C)	CEM	4
CC(C)c1nc(CN(C)C(=O)N[C@H](C(=O)N[C@@H](Cc2ccccc2)C[C@H](O)[C@H](Cc2ccccc2)NC(=O)OCc2cncs2)C(C)C)cs1	p24	PR-D30N	NL4-3	MT-4	0.2
CC(C)=CCN1Cc2cc(Cl)cc3[nH]c(=S)n(c23)C[C@@H]1C	syncytia	RT-K103N	IIIB TIBO R82913 STR-2 (RT K103N)	CEM	≥250
O=C(Nc1nccs1)c1cccc(CN2C(=O)N(Cc3ccccc3)[C@H](Cc3ccccc3)[C@H](O)[C@@H](O)[C@H]2Cc2ccccc2)c1	p24	PR-V82F	HXB2	MT-4	3
C=C[C@]1(CO)O[C@@H](n2cc(C)c(=O)[nH]c2=O)C[C@@H]1O	β-galactosidase	RT-M184V		HeLa	<12.3
Cc1cn([C@H]2C[C@H](N=[N+]=[N-])[C@@H](CO)O2)c(=O)[nH]c1=O	plaque count	RT-T215Y	A036C (RT-T215Y)	HT4 + HT4-6C	60
Cc1ccnc2c1NC(=O)c1cccnc1N2C1CC1	cytopathic effect	RT-L100I		CEM	5.45
Nc1ccn([C@H]2S[C@@H](CO)C=C2F)c(=O)n1		RT-M184V	3TC-resistant (RT M184V)	PBMC	>100
Cc1ccnc(N2C(=O)CSC2c2c(Cl)cccc2Cl)n1	cytopathic effect	RT-K103N		CEM	559
CCc1cc(NCc2nc3c(Cl)ccc(Cl)c3o2)c(=O)[nH]c1C	antigen	RT-P236L	MFE30(RT-P236L)	MT-4	<0.1
CC(C)CN(C[C@@H](O)[C@H](Cc1ccccc1)NC(=O)[C@H](CC(N)=O)NC(=O)c1ccc2ccccc2n1)C(=O)NC(C)(C)C	p24	PR-L10R L63P V82T	NL4-3	MT-4	2
Fc1cccc(F)c1C1SCc2nc3ccccc3n21	cytopathic effect	RT-Y181C		CEM	9.93
CCc1cc(NCc2nc3c(Cl)ccc(Cl)c3o2)c(=O)[nH]c1C	p24	RT-Y181C	R88703-resistant IIIB (RT Y181C)	MT-4	70
Cc1cn([C@H]2C=C[C@@H](CO)O2)c(=O)[nH]c1=O	plaque count	RT-V75A	RTMC (RT-V 75A)	CD4+HELA + HeLa	3.11
CC(C)[C@H](NC(=O)OCc1ccccc1)C(=O)N[C@@H](Cc1ccccc1)[C@@H](O)[C@H](O)[C@H](Cc1ccccc1)NC(=O)[C@@H](NC(=O)OCc1ccccc1)C(C)C	p24	PR-L10F M46I L63P V82F I84V	MK639-resistant (PR L10F M46I L63P V82F I84V)	MT-4	>150
CC(C)(C)NC(=O)[C@@H]1C[C@@H]2CCCC[C@@H]2CN1C[C@@H](O)[C@H](Cc1ccccc1)NC(=O)[C@H](CC(N)=O)NC(=O)c1ccc2ccccc2n1	p24	PR-L10R M46I V82T	NL4-3	MT-4	1
CC(C)Nc1cccnc1N1CCN(C(=O)c2cc3cc(NS(C)(=O)=O)ccc3[nH]2)CC1	p24	RT-V106A	BaL	PBMC	70
Cc1occc1C(=S)Nc1ccc(Cl)c(/C=N/OC(C)(C)C)c1	cytopathic effect / XTT	RT-V106I	NL4-3 (RT V106I)	CEM + CEM-SS	33.75
Nc1ccn([C@H]2C[C@H](O)[C@](CO)(CF)O2)c(=O)n1	β-galactosidase	RT-L74V		HeLa	<0.413
Nc1ccn([C@H]2CC[C@@H](CO)O2)c(=O)n1	syncytia	RT-L100I	IIIB-BHAP)(0.1)(RT-L100I	CEM	0.4
Cc1ccnc2c1NC(=O)c1cccnc1N2C1CC1	cytopathic effect / XTT	RT-V106I	NL4-3 (RT V106I)	CEM + CEM-SS	>100
O=C(Nc1nc2ccccc2[nH]1)c1cccc(CN2C(=O)N(CC3CC3)[C@H](Cc3ccccc3)[C@H](O)[C@@H](O)[C@H]2Cc2ccccc2)c1	p24	PR-M46I I47V I50V	HXB2	MT-4	2.1
CC(C)OC(=O)OCOP(=O)(CO[C@H](C)Cn1cnc2c(N)ncnc21)OCOC(=O)OC(C)C	p24	RT-D67N K70R T215Y K219Q	G691-2 AZT-resistant (RT D67N K70R T215Y K219Q)	MT-2	0.142
C/C=C/CSc1cc(NC(=S)c2ccsc2C)ccc1Cl	cytopathic effect / XTT	RT-K103N	UC10/costatolide-resistant (RT K103N)	CEM + CEM-SS	>10
Cc1cn([C@H]2C[C@H](N=[N+]=[N-])[C@@H](CO)O2)c(=O)[nH]c1=O	cytopathic effect	RT-L100I		CEM	1.14
CCn1c(=O)c(C)cn([C@@H]2O[C@H](CO[Si](C)(C)C(C)(C)C)C3(OS(=O)(=O)C=C3N)[C@H]2O[Si](C)(C)C(C)(C)C)c1=O	syncytia	RT-L100I Y188H	IIIB TIBO R82913 STR-B22 (RT L100I Y188H)	CEM	>1670
Cc1cn([C@H]2C[C@H](N=[N+]=[N-])[C@@H](CO)O2)c(=O)[nH]c1=O	cytopathic effect / XTT	RT-Y181C	UC781-R (RT-Y181C)	CEM + CEM-SS	0.5
Nc1ccn([C@H]2O[C@@H](CO)C=C2F)c(=O)n1		RT-M184V	3TC-resistant (RT M184V)	PBMC	>100
Cc1cc(S(N)(=O)=O)ccc1NC(=O)COc1ccc(Cl)cc1C(=O)c1cc(Cl)cc(C#N)c1	β-galactosidase	RT-Y188C	NNRTI-resistant (RT Y188C)	MAGI	0.21
CC(C)=CCN1Cc2cccc3[nH]c(=S)n(c23)C[C@@H]1C	syncytia	RT-L100I Y188H	IIIB TIBO R82913 STR-B22 (RT L100I Y188H)	CEM	≥250
O=c1[nH]cnc2c1ncn2[C@H]1CC[C@@H](CO)O1	p24	RT-A360T	NL4-3	MT-2	0.71
Nc1ccn([C@H]2CC[C@@H](CO)O2)c(=O)n1	syncytia	RT-L100I	IIIB TIBO R82150-resistant (RT L100I)	CEM	0.36
Cc1cn([C@@H]2O[C@H](CO[Si](C)(C)C(C)(C)C)C3(OS(=O)(=O)C=C3N)[C@H]2O[Si](C)(C)C(C)(C)C)c(=O)n(C)c1=O	syncytia	RT-Y181C	IIIB-Nevirapine(0.1)(RT-Y181C)	CEM	26

6 of the rows above, restated:

SMILES,read by,changes,strain,cell line,value
Fc1cccc(F)c1C1SCc2nc3ccccc3n21,cytopathic effect,RT-Y181C,,CEM,9.93
Nc1cccc(CN2C(=O)N(Cc3cccc(N)c3)[C@H](Cc3ccccc3)[C@H](O)[C@@H](O)[C@H]2Cc2ccccc2)c1,p24,PR-V82F,HXB2,MT-4,5.3
Nc1ccn([C@H]2CC[C@@H](CO)O2)c(=O)n1,syncytia,RT-L100I,IIIB TIBO R82150-resistant (RT L100I),CEM,0.36
Cc1occc1C(=S)Nc1ccc(Cl)c(/C=N/OC(C)(C)C)c1,cytopathic effect / XTT,RT-V106I,NL4-3 (RT V106I),CEM + CEM-SS,33.75
CC(C)=CCN1Cc2cc(Cl)cc3[nH]c(=S)n(c23)C[C@@H]1C,syncytia,RT-K103N,IIIB TIBO R82913 STR-2 (RT K103N),CEM,≥250
Cc1cn([C@H]2C[C@H](N=[N+]=[N-])[C@@H](CO)O2)c(=O)[nH]c1=O,cytopathic effect,RT-L100I,,CEM,1.14